Reference: patent US11725005B2

System: JCV laboratory strain MAD-1
Experiment: JCV antiviral potency in Cos 7 cells
Type: cell-based, JC polyomavirus

SMILES: Cc1ccc(NC(=O)c2ccc(CN3CCN(C)CC3)cc2)cc1Nc1nccc(-c2cncc(-c3cn[nH]c3)c2)n1
- Antiviral activity against JCV: little antiviral activity
